Measured values from several laboratories, pooled; numbers as filed in NIAID ChemDB.

All rows: growth or infection tests; organism: HIV-1; method: cytopathic effect / XTT; measure: fold resistance

Conditions beyond the fields shown may differ between rows.

structure | strain | cells | mutations | result
Cc1cn([C@@H]2O[C@H](CO[Si](C)(C)C(C)(C)C)[C@@]3(OS(=O)(=O)C=C3N)[C@H]2O[Si](C)(C)C(C)(C)C)c(=O)[nH]c1=O | UC781-R (RT-Y181C) | CEM + CEM-SS | RT-Y181C | >200
Cc1cn([C@H]2C[C@H](N=[N+]=[N-])[C@@H](CO)O2)c(=O)[nH]c1=O | CALO(RT-T139I) | CEM + CEM-SS | RT-T139I | 0.2
CCc1c(Sc2ccccn2)n(COCc2ccccc2)c(=O)[nH]c1=O | IIIB | CEM + CEM-SS | RT-V90I T139I P225S | 0.06
CC1=C(C(=O)Nc2ccc(Cl)c(C(=O)OC(C)C)c2)SCCO1 | IIIB(TIBO-R(I)) | CEM + CEM-SS | RT-A98G V108I | >333
Cc1cn([C@H]2C[C@H](N=[N+]=[N-])[C@@H](CO)O2)c(=O)[nH]c1=O | 4XAZT/L100I (RT D67N K70R L100I T215Y K219Q) | CEM + CEM-SS | RT-D67N K70R L100I T215Y K219Q | 33.3
C1=Nc2ccccc2SN1 | IIIB | CEM + CEM-SS | RT-Y181C | >22
Fc1cccc(F)c1[C@@H]1SCc2nc3ccccc3n21 | IIIB | CEM | RT-K103N | 2.18
Cc1occc1C(=S)Nc1ccc(Cl)c(/C=N/OC(C)(C)C)c1 | Diphenyl sulfone-resistant (RT-Y181C) | CEM + CEM-SS | RT-Y181C | 5.5
Cc1cn([C@H]2C[C@H](N=[N+]=[N-])[C@@H](CO)O2)c(=O)[nH]c1=O | IIIB(TIBO-R(I)) | CEM + CEM-SS | RT-A98G V108I | 1.8
Cc1cn([C@H]2C[C@H](N=[N+]=[N-])[C@@H](CO)O2)c(=O)[nH]c1=O | IIIB | CEM + CEM-SS | RT-K103N Y181C | 0.2
O=S1(c2ccccc2)=NC(=S)Nc2ccccc21 | IIIB(OC-R(I)) | CEM + CEM-SS | RT-L100I | 11
Fc1cccc(F)c1C1SCc2nc3ccccc3n21 | IIIB | CEM | RT-D138K | 1.24
Cc1cn([C@H]2C=C[C@@H](CO)O2)c(=O)[nH]c1=O | Site-directed mutant | MT-2 | RT-K65R | 2.2
Cc1ccnc2c1NC(=O)c1cccnc1N2C1CC1 | NL4-3 (RT V108I) | CEM + CEM-SS | RT-V108I | 3
C[C@H](Cn1cnc2c(N)ncnc21)OCP(=O)(O)O | Site-directed mutant | MT-2 | RT-K65R | 3.3
Cc1ccnc2c1NC(=O)c1cccnc1N2C1CC1 | 4XAZT/Y181C (RT D67N K70R Y181C T215Y K219Q) | CEM + CEM-SS | RT-D67N K70R Y181C T215Y K219Q | 40
CCc1c(Sc2ccccn2)n(COCc2ccccc2)c(=O)[nH]c1=O | IIIB(N119(III)) | CEM + CEM-SS | RT-Y181C | >333
C/C=C/CSc1cc(NC(=S)c2ccsc2C)ccc1Cl | Calanolide A-resistant (RT T139I) | CEM + CEM-SS | RT-T139I | 2
Fc1cccc(F)c1[C@H]1SCc2nc3ccccc3n21 | IIIB | CEM | RT-Y188C | 6.71

For reference, 2 entries again:

structure,strain,cells,mutations,result
Cc1occc1C(=S)Nc1ccc(Cl)c(/C=N/OC(C)(C)C)c1,Diphenyl sulfone-resistant (RT-Y181C),CEM + CEM-SS,RT-Y181C,5.5
C[C@H](Cn1cnc2c(N)ncnc21)OCP(=O)(O)O,Site-directed mutant,MT-2,RT-K65R,3.3

Fold resistance: result on the changed form divided by that on wild type.